Literature values in PMC4919188 (Nature, 2016).

Test system: mouse
Conditions: cited from earlier work

CC(C)C[C@@H]1NC(=O)[C@H](Cc2ccc(O)cc2)NC(=O)[C@H](CCCNC(=N)N)NC(=O)[C@@H](NC(=O)[C@@H](N)CCC(=O)O)CSSC[C@@H]2NC(=O)[C@@H]3CSSC[C@@H](C(=O)N[C@@H](C)C(=O)N[C@@H](Cc4c[nH]c5ccccc45)C(=O)N[C@@H](CC(=O)O)C(=O)NCC(=O)N[C@H](C(=O)N[C@@H](Cc4ccccc4)C(=O)N[C@@H](CO)C(=O)O)[C@@H](C)O)NC(=O)[C@H](Cc4ccc(O)cc4)NC(=O)[C@H](CCCCN)NC(=O)[C@H](Cc4c[nH]c5ccccc45)NC(=O)[C@H](CC(=O)O)NC(=O)[C@H](CO)NC(=O)[C@H](CCCNC(=N)N)NC(=O)[C@H](CSSC[C@H](NC(=O)CNC(=O)CNC(=O)[C@H](Cc4ccccc4)NC1=O)C(=O)N[C@@H](CO)C(=O)N[C@@H](CO)C(=O)N[C@@H]([C@@H](C)O)C(=O)N[C@@H](CO)C(=O)N[C@@H](CC(=O)O)C(=O)N3)NC(=O)[C@H](CO)NC(=O)[C@H](CC(C)C)NC(=O)[C@H](Cc1c[nH]cn1)NC(=O)[C@H](CCCCN)NC2=O [Hm1a]
effect of injection into the mouse brain: convulsions and rapid death
